Legend:
[1] = human, pH 7.4
[2] = human, pH 7.4; remark: listed apart in the source
[3] = human, pH 7.4; remark: listed apart in the source

7-β-hydroxy-zearalenol [β-ZOL]
Number of Metabolites (n): Desaturation oxidation, −(H2) +(O2) [1]: 0
Number of Metabolites (n): Reduction, oxidation, +(H2) +(O) [1]: 0
share of Oxidation +(O) metabolites in ∑ n [1]: 7(88%)
glucuronides of parent toxins at position C-14 [2]: 27%
share of species, Figure 7 pie [2]: 48%
sum of parent glucuronides [2]: 49%
LC-MS Library: metabolites generated [3]: Phase I metabolites: (-(H4)+(O))- β-ZOL (-(H2)+(O))- β-ZOL (+O)- β-ZOL Glucuronides: Gluc-16- β-ZOL, Gluc-14- β-ZOL, Gluc-7- β-ZOL, Gluc-(+O)- β-ZOL, 2 × Gluc- β-ZOL

— article PMC6723440 (Toxins, 2019)
